System: influenza B virus strain Massachusetts/6/93
Conditions: U0126 50 μM, multiple passaging

**Q.** `N#CC(=C(N)Sc1ccccc1N)C(C#N)=C(N)Sc1ccccc1N` [U0126, 1,4-diamino-2,3-dicyano-1,4-bis(2-aminophenylthio)butadiene] was tested. Which “formation of resistant virus variants (virus titer on passaging)” value did it give?
**A.** without resistant virus variants being formed

— patent publication US20100239563A1 (priority 2001, published 2010)
